# Reference: paper PMC5542705
# For some assays here: Protein sequences can lack the tags named with them.
# Legend:
# Mst12 = target: T1, Mst12 (UniProt Q96UQ9); test: EMSA; details: recombinant protein; residues 1-715; protein details: His (modified pET28, HisTrap); label: biotin-11-UTP 3' end (TdT); probe letters rebuilt from the primers and the genome
# T1 sequence (looked up): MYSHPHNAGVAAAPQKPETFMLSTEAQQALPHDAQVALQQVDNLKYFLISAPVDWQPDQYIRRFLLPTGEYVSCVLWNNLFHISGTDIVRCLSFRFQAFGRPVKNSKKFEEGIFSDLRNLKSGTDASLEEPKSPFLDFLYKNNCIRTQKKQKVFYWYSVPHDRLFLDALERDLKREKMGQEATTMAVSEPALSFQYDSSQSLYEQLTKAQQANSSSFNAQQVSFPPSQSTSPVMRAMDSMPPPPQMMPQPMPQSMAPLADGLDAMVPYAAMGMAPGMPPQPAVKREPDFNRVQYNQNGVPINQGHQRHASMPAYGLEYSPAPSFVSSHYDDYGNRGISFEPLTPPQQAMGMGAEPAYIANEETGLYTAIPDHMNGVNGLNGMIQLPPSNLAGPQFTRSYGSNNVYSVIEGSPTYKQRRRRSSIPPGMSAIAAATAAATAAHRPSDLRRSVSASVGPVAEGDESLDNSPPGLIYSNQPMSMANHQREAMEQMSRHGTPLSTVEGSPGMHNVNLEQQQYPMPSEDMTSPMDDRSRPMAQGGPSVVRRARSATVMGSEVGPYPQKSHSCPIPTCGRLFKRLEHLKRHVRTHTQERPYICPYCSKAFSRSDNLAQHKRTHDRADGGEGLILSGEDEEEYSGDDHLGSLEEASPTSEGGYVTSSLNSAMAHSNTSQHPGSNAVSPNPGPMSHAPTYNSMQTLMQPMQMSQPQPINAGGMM
# Mst12 + Tpc1 = test: EMSA; details: recombinant protein; label: biotin-11-UTP 3' end (TdT); probe letters rebuilt from the primers and the genome
sequence,measurement,setting,value
CGTGTGTGTACCCCACAAGCTAGCCCATGCTGGTTCTTAAACTCGCATGCGTCCCGCTTGGTGAAGATCAAGCAAAACCTCTGACATGCTAAATACCCCAACTGCCTCACAACGCCTCCTGAATCTCGCCCTCGTCCGTTTGTCTGATCCTCAAACAACCATCCATGCCGAACCGAACCACTGTCACAGTGAAATCGACTTTTTGGCTACACCTTTTCCGTGTTTGCCCTGCGCAATAGTACTAGGAATTGCGCCCCGCCTAACCGCCCCTTCAGGCATCTCGCTTGCTCCTGGACCTCTCCACCCAAGAAACAGCGAATCCGTATCATGCCGTCCGGATGCCTGCTGCCATCATAGACCAGATCAGCAGGACGTGGATCACAAACGACACCATTCTAAGGGGCGTCGCCTCACCAAATAAAAAAAAACATCCGACACAGACCCCGGCCTGTCAGAACAAGCTCGTCTGTTACGTCGTCGGTAC / CGACGACGTAACAGACGAGCTTGTTCTGACAGGCCGGGGTCTGTGTCGGATGTTTTTTTTTATTTGGTGAGGCGACGCCCCTTAGAATGGTGTCGTTTGTGATCCACGTCCTGCTGATCTGGTCTATGATGGCAGCAGGCATCCGGACGGCATGATACGGATTCGCTGTTTCTTGGGTGGAGAGGTCCAGGAGCAAGCGAGATGCCTGAAGGGGCGGTTAGGCGGGGCGCAATTCCTAGTACTATTGCGCAGGGCAAACACGGAAAAGGTGTAGCCAAAAAGTCGATTTCACTGTGACAGTGGTTCGGTTCGGCATGGATGGTTGTTTGAGGATCAGACAAACGGACGAGGGCGAGATTCAGGAGGCGTTGTGAGGCAGTTGGGGTATTTAGCATGTCAGAGGTTTTGCTTGATCTTCACCAAGCGGGACGCATGCGAGTTTAAGAACCAGCATGGGCTAGCTTGTGGGGTACACACACGGTAC [NOXD promoter probe 1],binding result,Mst12,binds
same,binding result,Mst12 + Tpc1,binds
